Measured values published in publication PMC11227194, “A ferritin-based nanoparticle displaying a neutralizing epitope for foot-and-mouth disease virus (FMDV) confers partial protection in guinea pigs” (BMC Veterinary Research, 2024).

Molecular target: the molecule itself
Assay: […] (50 mM Tris HCl, pH 7.4, 10 mM MgCl2), […]

B1: Helicobacter pylori J99 ferritin (natural protein)
chain: MLSKDIIKLLNEQVNKEMNSSNLYMSMSSWCYTHSLDGAGLFLFDHAAEEYEHAKKLIIFLNENNVPVQLTSISAPEHKFEGLTQIFQKAYEHEQHISESINNIVDHAIKSKDHATFNFLQWYVAEQHEEEVLFKDILDKIELIGNENHGLYLADQYVKGIAKSRKS
notes: also called Hpf; ferritin-based nanoparticle; source: E. coli BL21 (DE3), purified (heat precipitation 65 °C, SEC); copies: 24
B1: binds.
